# Sequence variants of PSTVd loop 1 after infection

From the data files of Wu et al. 2024, doi:10.1371/journal.ppat.1012142.

Region: loop 1 of PSTVd (intermediate strain), 5' to 3', with the closing base pair. Wild type: CCUCGG. Varied positions (N): CNNNNG.

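A pool of all variants was put on leaves of three Nicotiana benthamiana plants. Progeny were sequenced from the inoculated region (day 5), the margin of the inoculated leaf (day 10) and systemic leaves (day 12).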

Values are reads per thousand in the sample; higher means more abundant, 0 means not found. Each value is the mean of three plants. "Pool" is the share in the plasmid pool used as inoculum, on the same scale. The inoculated region was read from the minus strand, the other sites from the plus strand. For reference, wild type rose from 20.1 per thousand in the pool to 197, 219, 222 (inoculated region), 828, 823, 779 (leaf margin) and 914, 907, 857 (systemic leaves). The authors trace changes outside the varied positions to PCR and sequencing errors or to mutation in the plant; presence does not show that a variant is infectious alone. With 32,791-60,834 reads a sample, very low values are single reads.

| sequence | pool | inoculated region | leaf margin | systemic leaves |
|---|---|---|---|---|
| AUUGUG | 0.0131 | 0 | 0 | 0 |
| CAUAAG | 3.60 | 2.88 | 0.0172 | 0 |
| CAACUG | 4.83 | 2.87 | 0.109 | 0.0384 |
| CACGCG | 3.22 | 2.63 | 0.00704 | 0 |
| CGCCGG | 3.47 | 2.83 | 0 | 0 |
| CUUUGG | 3.59 | 2.70 | 0.0137 | 0 |
| CUAGUG | 3.60 | 2.84 | 0 | 0 |
| CUGAAG | 3.98 | 3.00 | 0.0102 | 0.0115 |
| CCCGUG | 3.40 | 2.83 | 4.04 | 0 |
| CUGCUG | 4.07 | 2.64 | 0.0172 | 0.0122 |
| CUUGCG | 4.14 | 2.73 | 1.31 | 0.416 |
| CCCUCG | 4.23 | 2.88 | 0 | 0 |
| CGACUG | 3.42 | 2.91 | 0.0102 | 0.0110 |
| CGGGAG | 4.80 | 2.71 | 0 | 0.0115 |
| CGGUAG | 5.03 | 2.96 | 0.00663 | 0.0245 |
| CACAAG | 3.39 | 2.79 | 0 | 0 |
| CAUUUG | 3.05 | 2.52 | 0.0102 | 0 |
| CUAAGG | 3.06 | 2.98 | 0.0102 | 0 |
| CGGUGG | 3.53 | 2.60 | 0.0203 | 0 |
| CGUCUG | 3.25 | 2.86 | 0 | 0 |
| CAUUCG | 4.19 | 2.97 | 0.0238 | 0.00548 |
| CACGGG | 4.18 | 2.91 | 0.0211 | 0 |
| CCGAUG | 3.23 | 2.68 | 1.35 | 0 |
| CGCCUG | 3.31 | 2.91 | 0 | 0 |
| CGUUGG | 3.73 | 2.80 | 0.00704 | 0.0110 |
| CUGUAG | 3.56 | 2.88 | 9.37 | 0 |
| CCCCCG | 2.93 | 2.60 | 0.0168 | 0 |
| CACGUG | 4.01 | 2.66 | 0.0133 | 0 |
| CACUGG | 4.31 | 3.01 | 0.0102 | 0 |
| CAGGUG | 3.71 | 2.85 | 0 | 0.00548 |
| CUCGGG | 3.89 | 4.51 | 0.00704 | 0.0115 |
| CGUAAG | 4.24 | 2.90 | 0 | 0.0164 |
| AGCAAG | 0.0131 | 0 | 0 | 0 |
| GAGUCG | 0.0131 | 0 | 0 | 0 |
| CAGUGG | 3.39 | 2.57 | 1.37 | 0.438 |
| CAGUUG | 5.28 | 2.83 | 0 | 0.0224 |
| CCAAGG | 3.60 | 2.89 | 0.0102 | 0 |
| CAACAG | 3.80 | 2.45 | 0 | 0.00548 |
| CGUGAG | 3.88 | 2.68 | 0 | 0 |
| CGACGG | 3.51 | 2.67 | 0.0102 | 0.0110 |
| CUUACG | 3.76 | 2.85 | 0 | 0.0110 |
| CCAGCG | 3.15 | 2.71 | 0.00663 | 0 |
| CCCAAG | 4.06 | 3.13 | 0 | 0.0110 |
| CGUCCG | 4.53 | 3.01 | 0.0137 | 0.0169 |
| CCCGGG | 3.26 | 2.51 | 0.0168 | 0 |
| CCUCUC | 0.0131 | 0 | 0 | 0 |
| CUCGUG | 3.80 | 2.95 | 0 | 0.0274 |
| CGAGCG | 3.81 | 2.77 | 0.0137 | 0.00548 |
| CCGUCG | 4.68 | 3.23 | 10.6 | 0.0164 |

The last 6 entries again:

{"sequence": "CGUCCG", "pool": "4.53", "inoculated region": 3.01, "leaf margin": 0.0137, "systemic leaves": 0.0169}
{"sequence": "CCCGGG", "pool": "3.26", "inoculated region": 2.51, "leaf margin": 0.0168, "systemic leaves": 0}
{"sequence": "CCUCUC", "pool": "0.0131", "inoculated region": 0, "leaf margin": 0, "systemic leaves": 0}
{"sequence": "CUCGUG", "pool": "3.80", "inoculated region": 2.95, "leaf margin": 0, "systemic leaves": 0.0274}
{"sequence": "CGAGCG", "pool": "3.81", "inoculated region": 2.77, "leaf margin": 0.0137, "systemic leaves": 0.00548}
{"sequence": "CCGUCG", "pool": "4.68", "inoculated region": 3.23, "leaf margin": 10.6, "systemic leaves": 0.0164}